Reference: publication PMC9239988 (2022)

Assays:
[1] = molecular target: TBEV prMe-linker-sE^W101D single-chain protein (tick-borne encephalitis virus strain Neudoerfl); test: crystal structure
[2] = molecular target: TBEV prMe-linker-sE W101D single-chain construct (Tick-borne encephalitis virus, strain Neudoerfl); test: crystal structure

Work on “TBEV prMe-linker-sE^W101D single-chain protein” yielded a stoichiometry N [1] of 3.
In the case of “TBEV prMe-linker-sE W101D single-chain construct”, the stoichiometry N [2] is reported as 3.
